Measured values published in paper PMC3832641, “Inhibition of Leishmania (Leishmania) amazonensis and Rat Arginases by Green Tea EGCG, (+)-Catechin and (−)-Epicatechin: A Comparative Structural Analysis of Enzyme-Inhibitor Interactions” (PLoS ONE, 2013).
Where “and” joins values, the source holds several entries; their conditions need not be identical. Equal entries are not always repeated.

Biological target: recombinant arginase from Leishmania amazonensis (ARG-L) (Leishmania amazonensis, UniProt O96394)
Experiment: Inhibition of ARG-L, determination of IC50 (urea production, Berthelot method)
Assay type: biochemical
Settings: 50 mM L-arginine, CHES buffer 50 mM pH 9.5, 37°C, 15 min, mean ± SEM

Compound | IC50
Oc1cc(O)c2c(c1)O[C@H](c1ccc(O)c(O)c1)[C@@H](O)C2 [(+)-catechin] | 800 nM and 770 nM
Oc1cc(O)c2c(c1)O[C@H](c1ccc(O)c(O)c1)[C@H](O)C2 [(−)-epicatechin] | 1800 nM
